The values below come from publication PMC13218499.

In this data set the target is T1, LsrR WT (Salmonella Typhimurium 14028s) (UniProt Q8ZKQ5).
T1 sequence (looked up): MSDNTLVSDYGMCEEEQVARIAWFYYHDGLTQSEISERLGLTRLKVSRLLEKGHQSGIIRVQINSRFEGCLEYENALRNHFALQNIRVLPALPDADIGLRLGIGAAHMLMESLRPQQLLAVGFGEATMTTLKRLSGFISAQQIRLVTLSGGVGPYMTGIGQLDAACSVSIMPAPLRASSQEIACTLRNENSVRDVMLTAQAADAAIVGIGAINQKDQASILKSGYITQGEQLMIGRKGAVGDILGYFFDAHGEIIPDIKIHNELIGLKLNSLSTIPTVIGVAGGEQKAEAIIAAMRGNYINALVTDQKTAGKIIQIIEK
The data set is described as follows: EMSA. The settings on record: 50 mM Tris-Cl pH 7.5, 150 mM NaCl, 3 mM Mg acetate, 0.1 mM EDTA, 0.1 mM DTT, 15 min room temperature, 6% native PAGE, SYBR Gold, recombinant protein, residues 1-319, protein details: C-terminal 6xHis, label: none (SYBR Gold stain).

For at least one entry, the source does not settle the construct or the ends of the probe. Protein sequences can lack the tags named with them.

With “AAGAGGGTGACTATTTGTCTGGTTTATTAACTGTTTATCCCCAAAGCACCATAATCAACGCTAGACTGTTCTTATTGTTAACACAAGGGA (double strand) [phoP promoter ds 90 bp]”, the binding result is reported as “binds”.
In the case of “AAGAGGGTGACTATTTGTCTGGTTTATTAACTGTTTATCCCCAAAGCACCATAATCAACGCTAGACTGTTCTTATTGTTAACACAAGGGA [phoP promoter ss 90 nt]”, the binding result (single-stranded DNA) is “binds”.
Turning to “GACCAAATAACTACTACCGTTTTGAACAATTTCTTTTTCAAAAAACATTTGTTCAGTCCCGTCAGTCAACATTGAGGGAGCGGAGGCAAC (double strand) [lsr promoter ds 90 bp]”, the binding result was “binds”.
For the sequence “GACCAAATAACTACTACCGTTTTGAACAATTTCTTTTTCAAAAAACATTTGTTCAGTCCCGTCAGTCAACATTGAGGGAGCGGAGGCAAC [lsr promoter ss 90 nt]”, the binding result (single-stranded DNA) was “binds”.
